{
  "sequences": {"note": "Protein sequences, listed by entry. Tags and fused reporters are not part of them. Residues count along the entry.", "UniProt P04439, 25-365 limits assumed": "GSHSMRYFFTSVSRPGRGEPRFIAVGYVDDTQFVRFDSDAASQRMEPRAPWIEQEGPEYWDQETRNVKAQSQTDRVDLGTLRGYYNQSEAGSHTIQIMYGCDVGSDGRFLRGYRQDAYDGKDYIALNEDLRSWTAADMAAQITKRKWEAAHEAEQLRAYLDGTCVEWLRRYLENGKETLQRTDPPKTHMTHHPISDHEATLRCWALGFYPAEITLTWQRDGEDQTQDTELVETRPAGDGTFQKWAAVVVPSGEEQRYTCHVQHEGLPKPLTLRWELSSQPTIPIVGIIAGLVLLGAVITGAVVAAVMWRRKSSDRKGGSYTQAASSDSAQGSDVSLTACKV"},
  "source": "paper PMC8293625",
  "about": "“HLA class-I-peptide stability mediates CD8^+ T cell immunodominance hierarchies and facilitates HLA-associated immune control of HIV” (Cell Reports, 2021)",
  "molecular_target": "HLA-A*0301 (Homo sapiens, UniProt P04439)",
  "assay": "Cell-based HLA class I-peptide concentration-based stability assay (TAP-deficient mono-allelic 721.221 cells)",
  "settings": "HLA A*03 mono-allelic TAP-deficient 721.221 cells, relative anti-HLA MFI",
  "data": [
    {"sequence": "TVYYGVPVWK [TK10]", "values": [
      {"measurement": "Relative HLA MFI (10 uM)", "setting": "peptide 10 uM", "result": 0},
      {"measurement": "Relative HLA MFI (100 uM)", "setting": "peptide 100 uM", "result": 0.03264}
    ]}
  ]
}
